Literature values in publication PMC4919188 (Nature, 2016).

System: mouse
Conditions: cited from earlier work

## CC(C)C[C@@H]1NC(=O)[C@H](Cc2ccc(O)cc2)NC(=O)[C@H](CCCNC(=N)N)NC(=O)[C@@H](NC(=O)[C@@H](N)CCC(=O)O)CSSC[C@@H]2NC(=O)[C@@H]3CSSC[C@@H](C(=O)N[C@@H](C)C(=O)N[C@@H](Cc4c[nH]c5ccccc45)C(=O)N[C@@H](CC(=O)O)C(=O)NCC(=O)N[C@H](C(=O)N[C@@H](Cc4ccccc4)C(=O)N[C@@H](CO)C(=O)O)[C@@H](C)O)NC(=O)[C@H](Cc4ccc(O)cc4)NC(=O)[C@H](CCCCN)NC(=O)[C@H](Cc4c[nH]c5ccccc45)NC(=O)[C@H](CC(=O)O)NC(=O)[C@H](CO)NC(=O)[C@H](CCCNC(=N)N)NC(=O)[C@H](CSSC[C@H](NC(=O)CNC(=O)CNC(=O)[C@H](Cc4ccccc4)NC1=O)C(=O)N[C@@H](CO)C(=O)N[C@@H](CO)C(=O)N[C@@H]([C@@H](C)O)C(=O)N[C@@H](CO)C(=O)N[C@@H](CC(=O)O)C(=O)N3)NC(=O)[C@H](CO)NC(=O)[C@H](CC(C)C)NC(=O)[C@H](Cc1c[nH]cn1)NC(=O)[C@H](CCCCN)NC2=O [Hm1a]
  effect of injection into the mouse brain: convulsions and rapid death
